A mixed list of measured activities; the numbers were collected in NIAID ChemDB.

Common to all: growth or infection tests; organism: Mycobacterium tuberculosis

MIC50, MIC90 and the like: level of inhibition, or share of isolates inhibited. Inhibition is in % at the dose shown (toxicity tests: loss of growth or viability). MIC bound: limit read from a one-dose screen. Blank or dashed fields: not listed here. ECn: concentration that inhibits the pathogen or its effect by n%. Lines come from different laboratories, so protocols vary.

| smiles | mutations | read by | cells | strain or isolate | setting | read-out | tested at | value |
|---|---|---|---|---|---|---|---|---|
| CCN1CCc2c(sc(NC(=O)c3c(F)c(F)c(F)c(F)c3F)c2C#N)C1 | rpoB S522L mutant | turbidity | - | H37Rv | - | MIC | - | 18 µM |
| CC1=C(C(=O)Nc2cc(C)ccc2C)C(c2ccc(Cl)cc2)C(C(=O)Nc2cc(C)ccc2C)=C(C)N1 | - | - | - | H37Rv | - | MIC | - | >6.25 µg/mL |
| CCCCCCCOc1cccc(NC(=O)OCCN(C)C)c1 | - | - | - | My 331/88 | - | MIC | - | 8 µM |
| CCN1CCc2c(sc(NC(=O)c3c(F)c(F)c(F)c(F)c3F)c2C(=O)NC)C1 | - | turbidity | - | ATCC 35822 | - | MIC | - | 3.2 µM |
| CCOC(=O)c1ccc2nc(-c3ccc(N4CCOCC4)cc3)[nH]c2c1 | - | resazurin / fluorescence | - | H37Rv | - | EC50 | - | >100 µM |
| OC(c1cc(-c2ccc(C(F)(F)F)cc2)nc(C(F)(F)F)c1)C1CCCCN1 | - | - | - | H37Rv | - | MIC bound | - | <6.25 µg/mL |
| CC1=C(C(=O)Nc2ccc(C)cc2)C(c2c3ccccc3cc3ccccc23)C(C(=O)Nc2ccccc2F)=C(C)N1 | - | - | - | H37Rv | - | MIC | - | >6.25 µg/mL |
| COc1ccc(/C=C/C(=O)c2ccc(Cl)cc2O)cc1 | - | - | - | H37Rv | - | MIC | - | >12.5 µg/mL |
| Cc1cc(C(=O)NNC(C)Cc2ccccc2)no1 | - | BACTEC | - | H37Rv | - | inhibition | 12.5 µg/mL | 18% |
| CO[C@H]1/C=C/O[C@@]2(C)Oc3c(C)c(O)c4c(O)c(c(/C=N/N5CCN(C/C=C/c6ccccc6)CC5)c(O)c4c3C2=O)NC(=O)/C(C)=C\C=C\[C@H](C)[C@H](O)[C@@H](C)[C@@H](O)[C@@H](C)[C@H](OC(C)=O)[C@@H]1C | - | - | - | 3064 (rifampin-sensitive) | - | MIC | - | 0.1 µg/mL |
| C[C@H]1C[C@H](N)CN1c1cc2c(cc1F)c(=O)c(C(=O)O)cn2-c1ccc(F)cc1F | - | - | - | Drug-resistant | - | MIC50 | - | 2 µg/mL |
| CO[C@H]1/C=C/O[C@@]2(C)Oc3c(C)c(O)c4c(=O)c(c5oc6cc(N7CCN(CC(C)C)CC7)cc(=O)c6nc5c4c3=C2O)NC(=O)/C(C)=C\C=C\[C@H](C)[C@H](O)[C@@H](C)[C@@H](O)[C@@H](C)[C@H](OC(C)=O)[C@@H]1C | - | - | - | Watanabe | inside macrophages | inhibition | 5 µg/mL | 31.1% |
| CC1CN(c2c(F)cc3c(=O)c(C(=O)O)cn(C4CC4)c3c2F)CCN1 | - | - | - | CSU20 | - | MIC | - | ≤0.125 µg/mL |
| CCCCNC(=O)c1cc(-c2ccccc2)sc1N | - | resazurin | - | H37Rv | - | MIC | - | >100 µg/mL |
| CCOC(=O)c1ccc2c(c1)nc(-c1ccc(Br)cc1)n2CCN1CCCC1=O | - | resazurin / fluorescence | - | H37Rv | - | EC90 | - | >100 µM |
| Nc1ccccc1/C=C/C(=O)c1ccc(Br)cc1O | - | - | - | H37Rv | - | MIC | - | >12.5 µg/mL |
| CCN1CCc2c(sc(NC(=O)c3c(F)c(F)c(F)c(F)c3F)c2C(N)=O)C1 | - | low oxygen | - | - | - | MIC | - | 50 µM |
| Cc1cc(NC(=O)c2ccc(N)cc2)ccc1N=Nc1ccc(N=Nc2ccc3c(O)cc(S(=O)(=O)[O-])cc3c2)c2cc(S(=O)(=O)[O-])ccc12.[Na+].[Na+] | - | BACTEC | - | H37Rv | - | MIC | - | ≥128 µg/mL |
| CCOC(=O)c1ccc2c(c1)nc(-c1ccc(Cl)cc1)n2CCN1CCCC1=O | - | resazurin / fluorescence | - | H37Rv | - | EC90 | - | >100 µM |
| COc1ccc2oc(=O)n(-c3ccccc3)c(=O)c2c1 | - | - | - | CNCTC MY331/88 | - | MIC | - | 250 µM |
| CCCCCCOc1ccc(NC(=O)OCCN2CCCCC2)cc1 | - | - | - | My 331/88 | - | MIC | - | 32 µM |
| CO[C@H]1/C=C/O[C@@]2(C)Oc3c(C)c(O)c4c(O)c(c(/C=N/N5CCN(C)CC5)c(O)c4c3C2=O)NC(=O)/C(C)=C\C=C\[C@H](C)[C@H](O)[C@@H](C)[C@@H](O)[C@@H](C)[C@H](OC(C)=O)[C@@H]1C | - | - | - | TN800 | - | MIC | - | >32 µg/mL |
| CC1CN(c2c(F)cc3c(=O)c(C(=O)O)cn(C4CC4)c3c2F)CC(C)N1 | - | - | - | CSU18 | - | MIC | - | ≤0.125 µg/mL |
| CC1COc2c(N3CCN(C)CC3)c(F)cc3c(=O)c(C(=O)O)cn1c23 | - | - | - | ATCC 35830 | - | MIC | - | 0.25 µg/mL |
| O=C(/C=C/c1ccccc1)c1cc(I)ccc1O | - | - | - | H37Rv | - | MIC | - | >12.5 µg/mL |
| CN1C(=O)c2ccccc2N(C)C(=O)c2ccccc21 | - | BACTEC | - | H37Rv | - | inhibition | 12.5 µg/mL | 11% |
| CO[C@H]1/C=C/O[C@@]2(C)Oc3c(C)c(O)c4c(=O)c(c5oc6cc(N7CCN(C(C)C)CC7)cc(=O)c6nc5c4c3=C2O)NC(=O)/C(C)=C\C=C\[C@H](C)[C@H](O)[C@@H](C)[C@@H](O)[C@@H](C)[C@H](OC(C)=O)[C@@H]1C | - | - | - | 3147 (rifampin-sensitive) | - | MIC | - | 0.006 µg/mL |
| O=C(/C=C/c1ccccc1I)c1ccccc1O | - | - | - | H37Rv | - | MIC | - | >12.5 µg/mL |
| NC1CCN(c2nc3c(cc2F)c(=O)c(C(=O)O)cn3-c2ccc(F)cc2F)C1 | - | - | - | Drug-resistant | - | MIC90 | - | >8 µg/mL |
| COc1ccc(-c2oc3cc(OC)cc(OC)c3c(=O)c2Br)cc1 | - | - | - | H37Rv | - | MIC | - | >12.5 µg/mL |
| CC[C@@H](CO)NCCN[C@@H](CC)CO | - | resazurin / fluorescence | - | H37Rv | - | EC90 | - | >200 µM |
| COc1ccccc1C1C(C(=O)Nc2ccccc2Cl)=C(C)NC(C)=C1C(=O)Nc1ccccc1Cl | - | - | - | H37Rv | - | MIC | - | >12.5 µg/mL |
| CC[C@H]1OC(=O)[C@H](C)[C@@H](O[C@H]2C[C@@](C)(OC)[C@@H](O)[C@H](C)O2)[C@H](C)[C@@H](O[C@@H]2O[C@H](C)C[C@H](N(C)C)[C@H]2O)[C@](C)(OC)C[C@@H](C)C(=O)[C@H](C)[C@@H](O)[C@]1(C)O | - | - | - | ATCC 35820 | - | MBC | - | >8 µg/mL |
| CCOC(=O)C1Cc2c(n(C3CCCCC3)c(=O)n(C)c2=O)OC1c1ccccc1 | - | BACTEC | - | H37Rv | - | inhibition | 12.5 µg/mL | 26% |
| COc1ccc2oc(=O)n(-c3ccc(Cl)cc3)c(=O)c2c1 | - | - | - | CNCTC MY331/88 | - | MIC | - | 62.5 µM |
| O=C1C=C(NCCCCC2CCCCC2)c2ccccc2C1=O | - | - | - | H37Rv | - | MIC bound | - | <6.25 µg/mL |
| COc1ccc(/C=C/C(=O)c2ccc([N+](=O)[O-])cc2)cc1 | - | - | - | H37Rv | - | MIC | - | >12.5 µg/mL |
| CO[C@H]1/C=C/O[C@@]2(C)Oc3c(C)c(O)c4c(O)c(c5c(c4c3C2=O)NC2(CCN(CC(C)C)CC2)N=5)=NC(=O)/C(C)=C\C=C\[C@H](C)[C@H](O)[C@@H](C)[C@@H](O)[C@@H](C)[C@H](OC(C)=O)[C@@H]1C | - | - | - | 6 (rifampicin-resistant) | - | MIC | - | 1 µg/mL |
| CCCCCCCCCOc1ccc(NC(=O)OCCN2CCCCC2)cc1 | - | - | - | My 331/88 | - | MIC | - | 16 µM |
| Cc1ccc2c(=O)n(-c3ccc(Cl)cc3)c(=O)oc2c1 | - | - | - | CNCTC MY331/88 | - | MIC | - | 31 µM |
| O=c1cc(-c2ccccc2)oc2cc(I)ccc12 | - | - | - | H37Rv | - | inhibition | 12.5 µg/mL | 9% |
| CCOC(=O)c1ccc2c(c1)nc(-c1ccc(O)c(OC)c1)n2CCN1CCCC1=O | - | resazurin / fluorescence | - | H37Rv | - | MIC | - | >100 µM |
| Cn1cc(NC(=O)c2cc(NC(=O)CCCCCC(=O)Nc3cc(C(=O)Nc4cc(C(=O)NCCC(N)=[NH2+])n(C)c4)n(C)c3)cn2C)cc1C(=O)NCCC(N)=[NH2+] | - | BACTEC | - | H37Rv | - | MIC | - | 12.5 µg/mL |
| COc1ccc(-c2cc(=O)c3ccc(OC)cc3o2)cc1 | - | - | - | H37Rv | - | MIC | - | >12.5 µg/mL |
| COC(=O)c1c(C(N)=O)c(C)n(NC(N)=O)c1C | - | BACTEC | - | H37Rv | - | MIC bound | - | >12.5 µg/mL |
| CCOC(=O)c1ccc2c(c1)nc(-c1ccc(C(F)(F)F)cc1)n2CCN1CCCOC1 | - | resazurin / fluorescence | - | H37Rv | - | EC90 | - | 44.46 µM |
| CN[C@@H]1[C@H](O[C@H]2[C@H](O[C@H]3[C@H](O)[C@@H](O)[C@H](N=C(N)N)[C@@H](O)[C@@H]3N=C(N)N)O[C@@H](C)[C@]2(O)C=O)O[C@@H](CO)[C@H](O)[C@H]1O | - | - | - | A4B (amikacin-resistant) | - | MIC | - | 4 µg/mL |
| CCCCCCCOc1ccc(NC(=O)OCCN(C)C)cc1 | - | - | - | My 331/88 | - | MIC | - | 8 µM |
| CC(=O)OC1SCCn2c1nc1ccccc1c2=O | - | resazurin | - | H37Rv | - | inhibition | 6.25 µg/mL | 27% |
| CO[C@H]1/C=C/O[C@@]2(C)Oc3c(C)c(O)c4c(O)c(c(/C=N/N5CCN(C)CC5)c(O)c4c3C2=O)NC(=O)/C(C)=C\C=C\[C@H](C)[C@H](O)[C@@H](C)[C@@H](O)[C@@H](C)[C@H](OC(C)=O)[C@@H]1C | - | - | - | H37Rv | - | MIC | - | 0.16 µg/mL |
| CC1=C(C(=O)Nc2cccc([N+](=O)[O-])c2)C(c2ccccc2Cl)C(C(=O)Nc2cccc([N+](=O)[O-])c2)=C(C)N1 | - | - | - | H37Rv | - | MIC | - | >6.25 µg/mL |
| O=C(O)c1cn(C2CC2)c2c(F)c(N3CCSCC3)c(F)cc2c1=O | - | - | - | CSU23 | - | MIC | - | 1 µg/mL |
| Cc1ccc(NCCN(C)C)c2c(=O)c3cc(O)ccc3sc12.I | - | BACTEC | - | H37Rv | - | MIC | - | ≥12.8 µg/mL |
| C[C@H]1COc2c(N3CCN(C)CC3)c(F)cc3c(=O)c(C(=O)O)cn1c23 | - | - | - | CSU26 | - | MIC | - | 0.5 µg/mL |
| CCOC(=O)c1cc(-c2ccccc2)sc1N | - | resazurin | - | H37Rv | - | MIC | - | >100 µg/mL |
| CCCCCCCCCOc1ccc(NC(=O)OCC[NH+]2CCCC2)cc1 | - | - | - | My 331/88 | - | MIC | - | 16 µM |
| CCOC(=O)c1ccc2c(c1)nc(-c1ccc3c(c1)OCO3)n2CCN1CCCOC1 | - | resazurin / fluorescence | - | H37Rv | - | EC50 | - | >100 µM |
| CC1C(c2ccc3c(c2)OCO3)CC(Cl)CC12C=C1OCOC1=CC2=O | - | BACTEC | - | H37Rv | - | MIC | - | ≥12.5 µg/mL |
| CCCCCCCCOc1ccccc1NC(=O)OCCN1CCCCC1 | - | - | - | My 331/88 | - | MIC | - | 32 µM |
| Cn1c(N2CCN(CCO)CC2)nc2c1c(=O)n(CC(O)CN1CCN(CCO)CC1)c(=O)n2C | - | BACTEC | - | H37Rv | - | MIC | - | ≥12.8 µg/mL |
| CCOC(=O)c1c(NC(=O)c2c(F)c(F)c(F)c(F)c2F)sc2c1CCOC2 | gyrA mutant (D94N) | turbidity | - | H37Rv | - | EC90 | - | 0.35 µM |
| CNc1ccc(NCCO)c2c1C(=O)c1ccccc1C2=O | - | BACTEC | - | H37Rv | - | inhibition | 12.5 µg/mL | 79% |
| CC1CN(c2cc3c(cc2F)c(=O)c(C(=O)O)cn3-c2ccc(F)cc2F)CCN1 | - | - | - | MDR | - | MIC50 | - | 8 µg/mL |
| Cc1[nH]nc(-c2cccnc2)c1N=NN(C)C | - | - | VERO | H37Rv | - | MIC | - | 0.78 µg/mL |
| O=C(/C=C/c1ccccc1)c1cc(Br)ccc1O | - | - | - | H37Rv | - | MIC | - | >12.5 µg/mL |
| CC(C)N1C(=O)N(Cl)C2C1N(Cl)C(=O)N2Cl | - | BACTEC | - | H37Rv | - | inhibition | 6.25 µg/mL | 0% |
| CCN1CCc2c(sc(N)c2C(=O)Nc2ccccc2)C1 | - | resazurin | - | H37Rv | - | MIC | - | >100 µg/mL |
| O=C(N/N=C/c1ccccc1O)C1Cc2ccccc2C1C(Cl)Cl | - | BACTEC | - | H37Rv | - | inhibition | 12.5 µg/mL | 18% |
| CCOC(=O)c1ccc2c(c1)nc(-c1ccc(O)c(OC)c1)n2CCN1CCCOC1 | - | resazurin / fluorescence | - | H37Rv | - | MIC | - | 100 µM |
| Cc1cc(=O)oc2c(C)c3oc4c(c3cc12)CN(C)CC4 | - | BACTEC | - | H37Rv | - | inhibition | 12.5 µg/mL | 21% |
| O=c1oc2ccccc2c(=O)n1-c1ccccc1 | - | - | - | CNCTC MY331/88 | - | MIC | - | 125 µM |
| CC(C)=CCc1c(O)cc(O)c2c1OC(c1ccc(O)cc1)C(O)C2=O | - | resazurin | - | H37Rv | - | inhibition | 6.25 µg/mL | 20% |
| CCCCCOc1ccccc1NC(=O)OCCN1CCCCCC1 | - | - | - | My 331/88 | - | MIC | - | 16 µM |
| CCOC(=O)C(=O)Nc1nc2c(s1)C(=O)c1ccccc1C2=O | - | BACTEC | - | H37Rv | - | inhibition | 12.5 µg/mL | 100% |
| NC(=O)c1cnccn1 | - | - | - | Isolate 11135 monodrug-resistant | - | MIC | - | >300 µg/mL |
| CCOC(=O)c1ncc(Cl)cc1NC(=O)CC(=O)Nc1cc(Cl)cnc1C(=O)OCC | - | BACTEC | - | H37Rv | - | inhibition | 12.5 µg/mL | 95% |
| CCCCCOc1ccccc1NC(=O)OCC[NH+]1CCCC1 | - | - | - | My 331/88 | - | MIC | - | 125 µM |